Construct, isoform or probe ends are uncertain for at least one entry.
System: His-MBP-AlpA (Pseudomonas aeruginosa ID40)
Assay: EMSA
Details: recombinant protein, protein details: N-terminal His-MBP (TEV site), not removed, label: 5' IRDye700

“CGGTGTTGCACGCGGCGGGACGCTCGCGGTAGTTTTTTCCCATGATCACG (double strand) [ABE probe (ampDh3 promoter)]”: binds (0.3125 nM probe, weak, smeary shift); binds (plus BSA (complex formation not affected)).

Source: publication PMC9998450
